Compound potency records, mixed from different reports. Data source: NIAID ChemDB in PubChem.

Common to all: growth or infection tests; species: Candida albicans; read-out: MIC

Conditions beyond the fields shown may differ between rows. An empty or dashed field is not shown.

compound	strain or isolate	result
CC(C)(C)c1ccc(COC(Cn2ccnc2)c2ccccc2)cc1	CA6	128 µg/mL
Cc1c(C(=O)c2ccccc2)oc2ccccc12	NRRL Y-27077	25 µg/mL
C[C@@H]1[C@H](O)[C@@H](C)/C=C/C=C/C=C/C=C/C=C/C=C/C=C/[C@H](OC2O[C@H](C)[C@@H](O)[C@H](N(CCCN)CCCN)[C@@H]2O)C[C@@H]2O[C@](O)(C[C@@H](O)C[C@@H](O)[C@H](O)CC[C@@H](O)C[C@@H](O)CC(=O)O[C@H]1C)C[C@H](O)[C@H]2C(=O)NCCn1cncn1	CAF2-1	0.04 µM
C[C@@H](n1cnnn1)[C@](O)(Cn1cncn1)c1ccc(F)cc1F	TA	100 µg/mL
Cc1ccc(C(C)C)cc1.Cc1ccc(N2C=NCCC2)cc1.[Cl][Ru][Cl]		400 µg/mL
Cc1nnsc1C(=O)NNC(=S)NC12CC3CC(CC(C3)C1)C2	ATCC 14053	12.5 µg/mL
COc1ccc2c(c1)CCN1C(NCCCCCCC(C)C)NCCC21	NFI0124	16 µg/mL
O/N=C\c1ccccc1O		1800 µM
N=C(N)c1ccc2[nH]c(-c3cc4cc(C(=N)N)ccc4o3)cc2c1		10 µg/mL
O=[N+]([O-])c1cccc(/C=N\O)c1		6020 µM
CCN1C=NCC1.Cc1ccc(C(C)C)cc1.[Cl][Ru][Cl]		400 µg/mL
COc1ccc(/C=N/O)cc1		>6620 µM
C1=NCCCN1Cc1ccccc1.Cc1c(C)c(C)c(C)c(C)c1C.[Cl][Ru][Cl]		400 µg/mL
O=[N+]([O-])c1cccc(CN(Cc2cccc(C(F)(F)F)c2)Cc2cccc(CN(CCNCCCO)Cc3cccc(C(F)(F)F)c3)n2)c1	ATCC 10231	>100 µM
CC(n1cnnn1)C(O)(Cn1cncn1)c1ccccc1F	TA	>100 µg/mL
CC(C)C1=CC2CC3(C=O)[C@@H]4CC[C@@H](C)[C@H]4CC2(C(O)CCC2CCCCC2)[C@]13C(=O)O		0.5 µg/mL
Cc1ccc2oc(/C(=N/O)c3ccccc3)c(C)c2c1	Clinical isolate	12.5 µg/mL
Oc1ccccc1/C=C/c1ccc(Cl)cc1	PCM 1409 PZH	100 µg/mL
O=[N+]([O-])c1ccc(/C=N\O)cc1		6020 µM
C=CCN(CC=C)c1nnc2c(cnc3ccccc32)n1	VM-71	40 µg/mL
C[C@@H](c1ncncc1F)[C@](O)(Cn1cncn1)c1ccc(F)cc1F	Isolate W2	0.015 µg/mL
COc1ccc2c(C)c(/C(=N/O)c3ccc(Cl)cc3)oc2c1	Clinical isolate	12.5 µg/mL
CCCCCCCCn1c(-c2ccc([N+](=O)[O-])cc2)cc(C(=O)N2CCN(C)CC2)c1C	20 strains	>200 µg/mL
O=C(c1ccccc1)c1oc2ccc(Cl)cc2c1Cn1cncn1	NRRL Y-27077	25 µg/mL
O=C1OC(c2ccc(Oc3ccccc3)cc2)=C/C1=C\c1ccc(Cl)cc1		>100 µg/mL
CCCCCCC(O)C12C[C@@H]3[C@H](C)CC[C@H]3C3(C=O)CC1C=C(C(C)C)[C@@]23C(=O)O		0.25 µg/mL
Clc1ccccc1N1CCN(CCCc2nc3ccc(Br)cc3[nH]2)CC1	ATCC 10231	1250 µg/mL
COc1cccc(/C=C2\C=C(c3ccc(Oc4ccccc4)cc3)OC2=O)c1		>100 µg/mL
Cc1ccc(C(Cn2ccnc2)OCc2ccc(C(C)(C)C)cc2)cc1	5M	>128 µg/mL
Cc1nnsc1-c1n[nH]c(=S)n1-c1ccc2ccccc2c1	ATCC 14053	25 µg/mL
Cc1c(C(=O)N2CCN(C)CC2)cc(-c2ccc([N+](=O)[O-])cc2)n1Cc1ccccc1	20 strains	>200 µg/mL
CN(C)CNc1ccc(-c2cc3cc(NCN(C)C)ccc3o2)cc1		>60 µg/mL
C[C@@H]1[C@H](O)[C@@H](C)/C=C/C=C/C=C/C=C/C=C/C=C/C=C/[C@H](OC2O[C@H](C)[C@@H](O)[C@H](N(CCCN)CCCN)[C@@H]2O)C[C@@H]2O[C@](O)(C[C@@H](O)C[C@@H](O)[C@H](O)CC[C@@H](O)C[C@@H](O)CC(=O)O[C@H]1C)C[C@H](O)[C@H]2C(=O)NCC[N+](C)(C)C	CAF2-1	1.4 µM
CC(n1cnnn1)C(O)(Cn1cncn1)c1ccc(Cl)cc1	TA	>100 µg/mL
C[C@@H]1[C@H](O)[C@@H](C)/C=C/C=C/C=C/C=C/C=C/C=C/C=C/[C@H](OC2O[C@H](C)[C@@H](O)[C@H](N(CCCN)CCCN)[C@@H]2O)C[C@@H]2O[C@](O)(C[C@@H](O)C[C@@H](O)[C@H](O)CC[C@@H](O)C[C@@H](O)CC(=O)O[C@H]1C)C[C@H](O)[C@H]2C(=O)O	DSY296	0.1 µM
CSC1NN=C(c2sc(C)nc2C)N1C1C2CC3CC(C2)CC1C3	ATCC 14053	12.5 µg/mL
O=C1NC(c2ccc(Oc3ccccc3)cc2)=C/C1=C\c1ccccc1O		>100 µg/mL
O/N=C\c1ccc(F)cc1		7200 µM
C[C@@H](n1ccnn1)[C@](O)(Cn1cncn1)c1ccc(F)cc1	TA	100 µg/mL
C[C@@H](c1ncncc1F)[C@](O)(Cn1cncn1)c1ccc(F)cc1F	OY-12-99 (FLU-R)	32 µg/mL
OC(Cn1cncn1)(Cn1cncn1)c1ccc(F)cc1F	2715	6.25 µg/mL
N=C(N)c1ccc2oc(C(=O)Nc3ccc(C4=NCCN4)cc3)cc2c1		>60 µg/mL
CCCCN1C(c2sc(C)nc2C)=NNC1SC	ATCC 14053	12.5 µg/mL
Oc1ccc(Cl)c2ccc(Cl)nc12	ATCC 60193	25 µg/mL
Cc1nc(C)c(C(=O)NNC(=S)NC23CC4CC(CC(C4)C2)C3)s1	ATCC 14053	12.5 µg/mL
Cc1c(O)cccc1C(=O)N[C@@H](CSc1ccccc1)[C@H](O)CN1C[C@H]2CCCC[C@H]2C[C@H]1C(=O)NC(C)(C)C	I63D	>64 µg/mL
CC(C)(C)c1ccc(COC(Cn2ccnc2)c2ccc(Cl)cc2Cl)cc1	PR1	128 µg/mL
N=C(N)c1ccc(/C=C/C=C/c2cc3cc(C(=N)N)ccc3o2)cc1		1 µg/mL
Clc1ccc(C(Cn2ccnc2)OCc2cccc3ccccc23)c(Cl)c1	Y0109	1 µg/mL
C/C(=C\c1cc2cc(C(=N)N)ccc2o1)c1cc2cc(C(=N)N)ccc2o1		>60 µg/mL
CC(n1nccn1)C(O)(Cn1cncn1)c1ccc(F)cc1	TA	100 µg/mL
CCCCCCn1c(-c2ccc([N+](=O)[O-])cc2)cc(C(=O)N2CCN(C)CC2)c1C	20 strains	>200 µg/mL
Oc1ccc(C(=S)N2CCN=C2c2ccccc2)c(O)c1	10 isolates	100 µg/mL
C(=C\c1ccccc1)/COC(Cn1ccnc1)c1ccccc1	CA6	128 µg/mL
CCn1cnc2ccccc21.Cc1ccc(C(C)C)cc1.[Cl][Ru][Cl]		400 µg/mL
CCCCNc1nnc(Cn2c(C)nc3ccccc32)o1	NCTC 5310	<100 µg/mL
CC(C)CCCCCCNC1NCCC2c3ccccc3CCN12	NFI0124	8 µg/mL
OC(Cn1cncn1)(Cn1cncn1)c1ccc(F)cc1F	ATCC 10231	313 µg/mL
COCCN1CCN(C)[C]1=[Ru]([Cl])[Cl].Cc1c(C)c(C)c(C)c(C)c1C		400 µg/mL
CSC1NN=C(c2snnc2C)N1c1ccc2ccccc2c1	ATCC 14053	25 µg/mL
O=C(/C=C/C=C/C=C/C=C/C=C/C=C/C=C/C(=O)NC1=C(O)CCC1=O)NC1=C(O)CCC1=O	YU-1200	>200 µg/mL
CC(C)C1=CC2CC3(C=O)C4CC[C@@H](C)C4CC2(CCOC(=O)c2ccc(S(N)(=O)=O)cc2)C13C(=O)O		128 µg/mL
CCCCCCCCCCn1c(-c2ccc([N+](=O)[O-])cc2)cc(C(=O)N(CCO)CCO)c1C	20 strains	>200 µg/mL
O=C1/C(=C/c2ccc(Cl)cc2)C=C(c2ccc(Oc3ccccc3)cc2)N1Cc1ccccc1		>100 µg/mL
CCOC(=O)Cc1nnnn1C(=S)c1ccc(O)cc1O	ATCC 10231	50 µg/mL
CC(n1nccn1)C(O)(Cn1cncn1)c1ccccc1F	TA	100 µg/mL
Oc1ccc(C(=S)N2C=NC(Cl)C2Cl)c(O)c1	10 isolates	50 µg/mL
CCC/C=C/C=C/C=C/C(=O)OCC1O[C@@H](OC2C(CO)O[C@]3(OCc4cc(O)cc(O)c43)[C@H](O)[C@H]2OC(=O)/C=C/C=C/CC(O)/C=C/C=C/C=C/CCC)[C@H](O)[C@@H](O)[C@H]1O	ATCC 32354	0.2 µg/mL
CC(n1ncnn1)C(O)(Cn1cncn1)c1ccc(Cl)cc1	TA	>100 µg/mL
C1=Cc2ccccc2C(c2ccc(N=Cc3ccccc3)cc2)c2ccccc21	ATCC 24433	>1000 µg/mL
O=C1/C(=C/c2cccc([N+](=O)[O-])c2)C=C(c2ccc(Oc3ccccc3)cc2)N1Cc1ccccc1		>100 µg/mL
N=C(N)c1cccc(Oc2ccc(-c3cc4ccc(C(=N)N)cc4[nH]3)cc2)c1		10 µg/mL
CCCCCCCCNC1NCCC2c3ccccc3CCN12	NFI0124	16 µg/mL
Cc1nnsc1C(=O)NNC(=S)Nc1ccc2ccccc2c1	ATCC 14053	25 µg/mL
Clc1nnc2c(cnc3ccccc32)n1	VM-71	≤10 µg/mL
CCCCCCCCNC1NCCC2c3ccc(OC)cc3CCN12	NFI2103	32 µg/mL
CC(C)=CCC1=CC(=O)C=C(C)C1=O	ATCC 10231	130 µg/mL

Repeating the final 9 entries:

compound | strain or isolate | result
CC(n1ncnn1)C(O)(Cn1cncn1)c1ccc(Cl)cc1 | TA | >100 µg/mL
C1=Cc2ccccc2C(c2ccc(N=Cc3ccccc3)cc2)c2ccccc21 | ATCC 24433 | >1000 µg/mL
O=C1/C(=C/c2cccc([N+](=O)[O-])c2)C=C(c2ccc(Oc3ccccc3)cc2)N1Cc1ccccc1 |  | >100 µg/mL
N=C(N)c1cccc(Oc2ccc(-c3cc4ccc(C(=N)N)cc4[nH]3)cc2)c1 |  | 10 µg/mL
CCCCCCCCNC1NCCC2c3ccccc3CCN12 | NFI0124 | 16 µg/mL
Cc1nnsc1C(=O)NNC(=S)Nc1ccc2ccccc2c1 | ATCC 14053 | 25 µg/mL
Clc1nnc2c(cnc3ccccc32)n1 | VM-71 | ≤10 µg/mL
CCCCCCCCNC1NCCC2c3ccc(OC)cc3CCN12 | NFI2103 | 32 µg/mL
CC(C)=CCC1=CC(=O)C=C(C)C1=O | ATCC 10231 | 130 µg/mL